Assay results as given in publication doi:10.1101/2025.05.22.655678.

Test system: T1, VchI (Vibrio cholerae)
T1 sequence (limits assumed): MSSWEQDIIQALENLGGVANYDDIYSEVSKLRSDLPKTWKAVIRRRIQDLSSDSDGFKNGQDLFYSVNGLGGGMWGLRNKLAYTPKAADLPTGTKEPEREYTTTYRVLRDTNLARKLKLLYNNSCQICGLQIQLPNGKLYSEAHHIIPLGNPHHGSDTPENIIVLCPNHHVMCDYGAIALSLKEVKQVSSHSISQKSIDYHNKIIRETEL
Assay: EMSA
Conditions: 0.5 uM VchI; N6-methyladenine in any context (M.EcoGII)

GGGCTACGTCTTGCTGGCGTTCGCGACACGAGGCTGGATGGCCTTCCCCATTATGATTCT (double strand)
binding result: binds

The exact form of at least one protein or probe is not confirmed. Protein sequences can lack the tags named with them.
